Measurements reported in PubChem BioAssay AID504761 (Drosophila RNAi Screening Center, 2011)

Assay: 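Insect host genes that dengue virus relies on to spread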 (primary screen)
Cell system: D.Mel-2 cells from Drosophila
Reagents: long dsRNA against Drosophila genes
Challenge: infection with dengue virus type 2; dose and infection time not stated
Measurement: 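Cells stained for dengue envelope protein and imaged; percent of infected cells per well on duplicate plates, ranked by infection, with stained nuclei counted for cell number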
Scale: infection score: higher = more virus-infected cells; cell count: higher = more cells in the well
Rule for the call: 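Very low infection ranking in both replicate wells (chance probability at most 0.065), then a retest showing infection dropped 1.5-fold or more at p below 0.05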
Meaning of the calls: active = confirmed: knock-down lowers infection; inactive = not picked or not confirmed
The deposit covers about 22,000 reagents; this is a random part of those with a known target gene and a result. In the full data, 116 (0.52%) are marked active. 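Calls depend on retest data that are not deposited; infection was ranked per plate without normalising between plates; the unit of the infection score is not given.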 Raw values vary from plate to plate and are shown uncorrected. Not all columns of the deposit are shown. Not stated in the record: the amount of reagent, the time to read-out.

ome [DRSC09322] | infection score, replicate 1: 4.45; cell count, replicate 1: 4427; activity call: inactive
ome [DRSC10282] | infection score, replicate 1: 0.63; cell count, replicate 1: 6352; activity call: inactive
ome [DRSC11380] | infection score, replicate 1: 1.85; cell count, replicate 1: 6167; activity call: inactive
CG3342 [DRSC18304] | infection score, replicate 1: 2; cell count, replicate 1: 5841; activity call: inactive
CG3342 [DRSC30048] | infection score, replicate 1: 15; cell count, replicate 1: 5778; activity call: inactive
CG17219 [DRSC00486] | infection score, replicate 1: 3.67; cell count, replicate 1: 6314; activity call: inactive
w-cup [DRSC03048] | infection score, replicate 1: 4.74; cell count, replicate 1: 6587; activity call: inactive
Lsm12a [DRSC19702] | infection score, replicate 1: 5.65; cell count, replicate 1: 6230; activity call: inactive
CG2616 [DRSC15440] | infection score, replicate 1: 6.98; cell count, replicate 1: 6220; activity call: inactive
CG2616 [DRSC24316] | infection score, replicate 1: 3.68; cell count, replicate 1: 6175; activity call: inactive
mthl9 [DRSC08506] | infection score, replicate 1: 0.73; cell count, replicate 1: 5895; activity call: inactive
bisc [DRSC04083] | infection score, replicate 1: 6.2; cell count, replicate 1: 6776; activity call: inactive
bisc [DRSC28459] | infection score, replicate 1: 12.2; cell count, replicate 1: 4228; activity call: inactive
CG18094 [DRSC02655] | infection score, replicate 1: 7.88; cell count, replicate 1: 4934; activity call: inactive
CG13840 [DRSC23279] | infection score, replicate 1: 0.91; cell count, replicate 1: 6373; activity call: inactive
CG13840 [DRSC28749] | infection score, replicate 1: 8.66; cell count, replicate 1: 2043; activity call: inactive
CG42748 [DRSC03712] | infection score, replicate 1: 7.67; cell count, replicate 1: 6507; activity call: inactive
CG42748 [DRSC03713] | infection score, replicate 1: 11.2; cell count, replicate 1: 6480; activity call: inactive
CG42748 [DRSC03734] | infection score, replicate 1: 20.2; cell count, replicate 1: 5916; activity call: inactive
CG42748 [DRSC28935] | infection score, replicate 1: 11.9; cell count, replicate 1: 4497; activity call: inactive
mRpL22 [DRSC19915] | infection score, replicate 1: 11.8; cell count, replicate 1: 4478; activity call: inactive
mRpL22 [DRSC26399] | infection score, replicate 1: 1.3; cell count, replicate 1: 5762; activity call: inactive

3 neighbouring reagents from above, for reference:
CG18094 [DRSC02655] | infection score, replicate 1: 7.88; cell count, replicate 1: 4934; activity call: inactive
CG13840 [DRSC23279] | infection score, replicate 1: 0.91; cell count, replicate 1: 6373; activity call: inactive
CG13840 [DRSC28749] | infection score, replicate 1: 8.66; cell count, replicate 1: 2043; activity call: inactive
